# Measurements reported in patent publication EP4162932A1, “ANTIVIRAL HOP CONSTITUENTS” (HHV Hallertauer Hopfenveredelungsgesellschaft mbH, priority 2021, dated 2023).
# Tested on: icSARS-CoV-2-mNG
# Format: cell-based, SARS-CoV-2
# Conditions: CC50 divided by IC50, Caco-2 cells
row,SMILES,therapeutic index (TI)
1,"CC(C)=CCc1c(O)cc2c(c1O)C(=O)C[C@@H](c1ccc(O)cc1)O2 [6-PN, 6-prenylnaringenin]",3.11
2,"CC(C)=CCc1c(O)cc(O)c2c1O[C@H](c1ccc(O)cc1)CC2=O [8-PN, 8-prenylnaringenin]",2.38
3,"COc1cc(O)c(CC=C(C)C)c2c1C(=O)CC(c1ccc(O)cc1)O2 (stereo not drawn) [IX, isoxanthohumol]",0.97
